Data as given in patent US20060165650 (published 2006).

Assay: general procedure: Fmoc solid-phase peptide synthesis in flow; solid support providing C-terminus amide, substitution 0.50 mmol/g
Details: whole synthesis, scale 0.2 mmol

Ac-CF AYI ARPLPRAHIKEYF Y -nh2
crude yield (based on the resin substitution degree): 42% | crude mass: 0.204 g | isolated mass: 0.038 g
